Anti-infective test results gathered from many reports (values: NIAID ChemDB through PubChem).

All rows: enzyme or target tests; agent: Hepatitis C virus

Blank or dashed fields: not listed here. Two numbers with a dash give a range or band. Inhibition is in % at the dose shown (toxicity tests: loss of growth or viability). ICn: concentration for n% inhibition. Lines come from different laboratories, so protocols vary.

SMILES | target | read-out | tested at | result
CC(C)CC(NC(=O)c1ccc2c(c1)nc(-c1ccc3nc(-c4ccccc4)cnc3c1)n2C1CCCCC1)C(=O)O | NS5B polymerase | inhibition | 33 µM | 93.18%
O=C(Nc1ccsc1-c1nc(C(=O)O)c(O)c(=O)[nH]1)OC1CCCC1 | HCV polymerase | IC50 | - | <25 µM
CN1CCN(C(=O)c2ccc3c(c2)nc(-c2cc4ccc(-c5ccccc5-c5ccc(Cl)cc5)nc4cc2F)n3C2CCCCC2)CC1 | NS5B polymerase | inhibition | 100 µM | 91.41%
O=C(Nc1ccsc1-c1nc(C(=O)O)c(O)c(=O)[nH]1)OCCc1ccccc1Cl | HCV polymerase | IC50 | - | <25 µM
Cc1ccc(C(=O)N(C)c2cc(-c3ccccc3)sc2C(=O)O)cc1 | NS3 ATPase | IC50 | - | <5 µM
CNC(=O)C1(c2ccc(F)cc2)Cc2cc(OC)c(-c3nnco3)cc2O1 | Nonstructural protein 5B | IC50 | - | ≤0.5 µM
CCOc1ccc(-c2cc(NS(=O)(=O)c3ccccc3C)c(C(=O)O)s2)cc1 | NS3 ATPase | IC50 | - | <5 µM
O=C(O)c1cnn2c(C3CCCCC3)c(-c3ccc4ncccc4c3)cnc12 | RNA-dependent RNA polymerase | IC50 | - | >10 µM
O=C(O)c1ccc2c(c1)nc(-c1ccc3nc(-c4ccccc4)cc(Nc4ccc(Cl)cc4)c3c1)n2C1CCCCC1 | NS5B polymerase | inhibition | 33 µM | 97.59%
CNC(=O)c1c(-c2ccc(F)cc2)oc2cc(N3CCC3)c(OC(C)C)cc12 | Nonstructural protein 5B | IC50 | - | ≤0.5 µM
COc1cccc(O)c1-c1ccc2cc(-c3nc4cc(C(=O)O)ccc4n3C3CCCCC3)ccc2n1 | NS5B polymerase | inhibition | 100 µM | 102.4%
CNC(=O)c1c(-c2ccc(F)cc2)oc2cc(-c3nccs3)c(OC(C)C)cc12 | Nonstructural protein 5B | IC50 | - | ≤0.5 µM
O=C(N[C@H](Cc1ccc(O)cc1)C(=O)O)c1cnn2c(C3CCCCC3)c(-c3ccc(F)cc3)cnc12 | RNA-dependent RNA polymerase | IC50 | - | <1 µM
CCCCC(=O)N(C)c1cc(-c2ccccc2)sc1C(=O)O | NS3 ATPase | IC50 | - | <5 µM
COc1cc(C[C@H](NC(=O)c2cc3nc(-c4ccco4)c(C4CCCCC4)c(=O)n3[nH]2)C(=O)O)ccc1O | RNA-dependent RNA polymerase | IC50 | - | <1 µM
CC1CCC(C(=O)N(c2cc(-c3ccccc3)sc2C(=O)O)C2CCCCC2)CC1 | NS3 ATPase | IC50 | - | <5 µM
Nc1ccc(-c2ccc(Cl)cc2)c(-c2ccc3cc(-c4nc5cc(C(=O)O)ccc5n4C4CCCCC4)ccc3n2)c1 | NS5B polymerase | inhibition | 100 µM | 101%
CC(C)c1ccc(NC(=O)Nc2cccc(-c3nc(C(=O)O)c(O)c(=O)[nH]3)c2)cc1 | HCV polymerase | IC50 | - | <100 µM
Clc1ccc(Oc2ccc(-c3cnc4c(-c5nn[nH]n5)cnn4c3C3CCCCC3)cc2)cc1Cl | RNA-dependent RNA polymerase | IC50 | - | 1–10 µM
Nc1c(Cl)cc(-c2ccc3cc(-c4nc5cc(C(=O)O)ccc5n4C4CCCCC4)ccc3n2)cc1Cl | NS5B polymerase | inhibition | 33 µM | 98.36%
CNC(=O)c1c(-c2ccc(F)cc2)oc2cc(N3CCOCC3)c(OCC3CC3)cc12 | Nonstructural protein 5B | IC50 | - | ≤0.5 µM
O=C(NCCCc1ccccc1)Nc1ccccc1-c1nc(C(=O)O)c(O)c(=O)[nH]1 | HCV polymerase | IC50 | - | <100 µM
O=C(O)c1ccc2c(c1)nc(-c1ccc3nc(-c4cc(OCC(=O)N5CCCC5)ccc4-c4ccccc4)ccc3c1)n2C1CCCCC1 | NS5B polymerase | inhibition | 100 µM | 97.86%
O=C(NCCc1c(Cl)cccc1Cl)Nc1ccsc1-c1nc(C(=O)O)c(O)c(=O)[nH]1 | HCV polymerase | IC50 | - | <25 µM
COc1ccc(-c2ccc(C(=O)N3CCCC3)cc2-c2ccc3cc(-c4nc5cc(C(=O)O)ccc5n4C4CCCCC4)ccc3n2)cc1OC | NS5B polymerase | inhibition | 100 µM | 101%
COc1cc(COc2ccc(-c3cnc4c(-c5nn[nH]n5)cnn4c3C3CCCCC3)cc2)cc(OC)c1 | RNA-dependent RNA polymerase | IC50 | - | 1–10 µM
CC(C)CC(=O)N(Cc1ccc(Cl)cc1)c1cc(-c2ccccc2)sc1C(=O)O | NS3 ATPase | IC50 | - | 5–20 µM
O=C(O)c1cc2nc(-c3ccc(Cl)cc3)cc(NC3CCCCC3)n2n1 | RNA-dependent RNA polymerase | IC50 | - | >10 µM
CC(NC(=O)Nc1cscc1-c1nc(C(=O)O)c(O)c(=O)[nH]1)c1cccs1 | HCV polymerase | IC50 | - | <25 µM
O=C(O)c1cnn2c(C3CCCCC3)ccnc12 | RNA-dependent RNA polymerase | IC50 | - | >10 µM
O=C(Nc1cccc(F)c1)Nc1cccc(-c2nc(C(=O)O)c(O)c(=O)[nH]2)c1 | HCV polymerase | IC50 | - | <100 µM

Repeating the final 4 entries:

SMILES | target | read-out | tested at | result
O=C(O)c1cc2nc(-c3ccc(Cl)cc3)cc(NC3CCCCC3)n2n1 | RNA-dependent RNA polymerase | IC50 | - | >10 µM
CC(NC(=O)Nc1cscc1-c1nc(C(=O)O)c(O)c(=O)[nH]1)c1cccs1 | HCV polymerase | IC50 | - | <25 µM
O=C(O)c1cnn2c(C3CCCCC3)ccnc12 | RNA-dependent RNA polymerase | IC50 | - | >10 µM
O=C(Nc1cccc(F)c1)Nc1cccc(-c2nc(C(=O)O)c(O)c(=O)[nH]2)c1 | HCV polymerase | IC50 | - | <100 µM